Where two headings read alike, the source gives them in different places.
Legend:
[1] = biological target: T1, influenza hemagglutinin (HA) of H1N1 A/Puerto Rico/08/1934 influenza virus on infected MDCK London cells (Influenza A virus H1N1 A/Puerto Rico/08/1934), P03452
[2] = biological target: T1, influenza hemagglutinin (HA) of H1N1 …; remark: listed apart in the source

B1: 11729-HC-Cterm-45d (antibody)
heavy (part 1 of 2): QVQLVQSGAEVKKSGSSVKVSCKASGGTFSSYAISWVRQAPGQGLEWMGGIIPIFGTPSYAQKFQDRVTITTDESTSTVYMELSSLRSEDTAVYYCARQQPVYQYNMDVWGQGTTVTVSS
VL: DIQMTQSPSSLSASVGDRVTITCRASQGIRNNLGWYQQKPLKAPKRLIYAASSLQSGVPSRFSGSGSGTEFTLTISSLQPEDFATYYCLQYNNYPWTFGQGTKVEIK
modifications: not checked
Binder B1 has an EC50 (read off the curve) [1] of 4 nM.

B2: 11729-LC-Nterm-11 (mAb 11729 conjugated to compound 11 via LLQGA pentapeptide at the antibody light chain N-terminus) (antibody)
VH: B1 heavy (part 1 of 2)
light: LLQGADIQMTQSPSSLSASVGDRVTITCRASQGIRNNLGWYQQKPLKAPKRLIYAASSLQSGVPSRFSGSGSGTEFTLTISSLQPEDFATYYCLQYNNYPWTFGQGTKVEIK
modifications: not checked
Binder B2 has an EC50 (read off the curve) [2] of 4 nM.

B3: 11729-LC-Cterm-11 (mAb 11729 conjugated to compound 11 via LLQGA pentapeptide at the antibody light chain C-terminus) (antibody)
VH: B1 heavy (part 1 of 2)
light (part 1 of 2): B1 VL
modifications: not checked
B3 gave an EC50 (read off the curve) [2] of 3 nM.
